Laboratory results reported in PubChem BioAssay AID588499 (NMMLSC, 2011).
The entries are a selection whose mix differs from that of the whole data set. The source made the active and inactive calls. No stated cut-off is given here; in the data, active means inhibition above about 30%; inconclusive means no clear call, values can overlap the other calls; inactive means below that.

Test system: Botulinum neurotoxin type A light chain protease (Clostridium botulinum A str. ATCC 3502)
Experiment: blockers of BoNT/A LC substrate cleavage – biochemical, flow cytometry, MLPCN library, primary screen (AID 588499); further: plate controls were buffer without enzyme for full effect and enzyme alone for no effect
Conditions: multiplex microsphere protease substrate cleavage, at 10 µM, hits give high values

Row | Compound | inhibition
1 | CC(C)C(=O)NC(Sc1ccccc1)C(Cl)(Cl)Cl (stereo not given) | inactive: -0.3%
2 | c1nnnn1CCn1cnnn1 | inactive: 0.4%
3 | O=P1(Nc2nc3ccc(Cl)cc3s2)COc2ccccc2O1 (stereo not given) | inactive: -0.6%
4 | CCOc1ccc(C2=NCC(CBr)S2)cc1 (stereo not given) | inactive: 0.3%
5 | CC(C)(C)C(=O)NC(Sc1ccccc1)C(Cl)(Cl)Cl (stereo not given) | inactive: -0.1%
6 | CCc1cc(O)c([N+](=O)[O-])c(C)c1[N+](=O)[O-] | inactive: -0.1%
7 | Cc1ccccc1CN(C)C(=O)COC(=O)C(O)(c1ccccc1)c1ccccc1 | inactive: 1.7%
8 | C[C@@H]1C=CCP(=O)(Oc2ccccc2)O1 (stereo not given in full) | inactive: -0.1%
9 | C[C@H]1OP(=O)(Oc2ccccc2)C[C@@H]2O[C@@H]21 (stereo not given in full) | inactive: -0.4%
10 | N#C/C(=C\c1ccc(N(CCBr)CCBr)cc1)C(N)=O | inactive: 0.2%
11 | CC(=O)c1ccc(N2CC2c2ccncc2)cc1 (stereo not given) | inactive: -1%
12 | COC(=O)C1(C)COP(=O)(NCc2ccccc2)OC1 (stereo not given) | inactive: 0.1%
13 | CC(=O)Nc1ccc([As](=O)(O)O)c(O)c1 | inactive: -0.6%
14 | CC(=O)Nc1ccc(Oc2c([N+](=O)[O-])cc([N+](=O)[O-])cc2[N+](=O)[O-])cc1 | inactive: -1.2%
15 | c1ccc(-c2nn[nH]n2)c(-c2nn[nH]n2)c1 | inactive: -1.4%
16 | O=C(NC1CCS(=O)(=O)C1)NP(=S)(Oc1ccccc1)Oc1ccccc1 (stereo not given) | inactive: -2.2%
17 | CCNC(=S)/N=C(\N)N[N+](=O)[O-] | inactive: -0.7%
18 | O=P1(N(CCCl)CCCl)OCCC2CCCCN21 (stereo not given) | inactive: -1.4%
19 | O=C(OC1CN2CCC1CC2)c1ccccc1 (stereo not given) | inactive: 1.1%
20 | CCC(=O)N1C2C3N(C(=O)CC)C1C1N(C(=O)CC)C(C(N1C(=O)CC)N3C(=O)CC)N2C(=O)CC | inactive: -1%
21 | COC(=O)c1cc2c(s1)N=C(c1ccccc1)N(C)P2(=O)N1CCOCC1 (stereo not given) | inactive: -0.2%
22 | Cc1ccc(OP(=O)(Nc2ccccn2)Oc2ccc(C)cc2)cc1 | inactive: -0.9%
23 | CC(=O)NC(SC(=S)N(CC(C)C)CC(C)C)C(Cl)(Cl)Cl (stereo not given) | inactive: -1.3%
24 | CC(NC(=O)COC(=O)C(O)(c1ccccc1)c1ccccc1)c1ccccc1 (stereo not given) | inactive: 0%

Row | Compound | inhibition
25 | CN(C)C(=O)Oc1noc2ccccc12 | inactive: 2.4%
26 | O=c1c2cc([N+](=O)[O-])ccc2[nH]c2c([N+](=O)[O-])cc([N+](=O)[O-])cc12 | inactive: -0.5%
27 | CN(C)P(=O)(N(C)C)n1c(Nc2ccccc2)nnc1-c1ccccc1 | inactive: -0.5%
28 | O=P(Nc1nc2ccc(Cl)cc2s1)(c1ccccc1)c1ccccc1 | inactive: -0.2%
29 | O=C(O)c1ccccc1[As](=O)(O)O | inactive: 0.2%
30 | CC(=O)Nc1ccc([As](=O)(O)O)cc1 | inactive: -0.2%
31 | CCCC1OP(N)(=O)OCC1CC (stereo not given) | inactive: -0.2%
32 | CCOP(=O)(Nc1ccccc1)OCC | inactive: -1.6%
33 | Cc1cc(SC(NC(=O)c2ccc(F)cc2)C(Cl)(Cl)Cl)ncn1 (stereo not given) | inactive: -0.7%
34 | CN(C(=O)Cc1ccc(Cl)c(Cl)c1)[C@H]1CCCC[C@@H]1N1CCCC1 | inactive: -1.1%
35 | Cc1ccc(NP(=O)(Oc2ccccc2F)Oc2ccccc2F)nc1 | inactive: -0.5%
36 | Nc1cccc2ccc([As](=O)(O)O)cc12 | inactive: 1.1%
37 | CCN(N=Nc1nonc1N)c1nonc1N | inactive: -0.4%
38 | CN(C(=O)Cc1ccc(Cl)c(Cl)c1)[C@H]1CCCC[C@H]1N1CCCC1 | inactive: -0.4%
39 | Cc1ccc(N/C(=N/P(=O)(N2CCOCC2)N2CCOCC2)N2CCOCC2)cc1 | inactive: 1.2%
40 | NC(=O)c1cc([N+](=O)[O-])cc([N+](=O)[O-])c1N | inactive: -1.2%
41 | Clc1ccc(Cl)c(NC2=NCC(CBr)S2)c1 (stereo not given) | inactive: -0.3%
42 | CN1CCCC(OC(=O)C(c2ccccc2)c2ccccc2)C1 (stereo not given) | inactive: 1.1%
43 | COc1ccccc1OP(=O)(Nc1ccc(C)cn1)Oc1ccccc1OC | inactive: -1%
44 | Cc1ccc(OP(=O)(Nc2nccs2)Oc2ccc(C)cc2)cc1 | inactive: 1%
45 | Oc1ccccc1CNc1ccccn1 | inactive: -1.2%
46 | O=C(NC(Sc1ccncn1)C(Cl)(Cl)Cl)c1ccccc1 (stereo not given) | inactive: -0.9%
47 | CC(C)CC(=O)NC(Sc1ccc(Cl)cc1)C(Cl)(Cl)Cl (stereo not given) | inactive: -0.9%
48 | Nc1cc(N)c2nonc2c1[N+](=O)[O-] | inactive: -1.6%

Row | Compound | inhibition
49 | O=[N+]([O-])C1C(O)C(O)C([N+](=O)[O-])C(O)C1O (stereo not given) | inactive: -0.5%
50 | COc1ccc(C2=NCC(CBr)S2)cc1 (stereo not given) | inactive: -1.1%
51 | Cc1ccc(NP(=O)(Oc2ccccc2)Oc2ccccc2)nc1 | inactive: -0.3%
52 | O=[N+]([O-])c1cc([N+](=O)[O-])c(CCNc2ccccc2)c([N+](=O)[O-])c1 | inactive: -1.1%
53 | CCc1nc2c(n1)c1c(non1O)c1c2no[n+]1[O-] | inactive: 0.2%
54 | CC(=O)N1C2C3N(C(C)=O)C1C1N(C(C)=O)C(C(N1C(C)=O)N3C(C)=O)N2C(C)=O | inactive: 0.6%
55 | O=[N+]([O-])c1cccc2n[nH]nc12 | inactive: 0.3%
56 | CCN(/C(=N/P(=O)(N1CCOCC1)N1CCOCC1)N1CCOCC1)c1ccc(OC)cc1 | inactive: -0.4%
57 | Nc1ccc([As](=O)(O)c2ccc(N)cc2)cc1 | inactive: -0.2%
58 | C[N+]1=C2C=CC=CC=C2SC12C([N+](=O)[O-])=CC([N+](=O)[O-])=C[C-]2[N+](=O)[O-] (stereo not given) | inactive: 6.9%
59 | c1cc(-c2nn[nH]n2)ccc1-c1nn[nH]n1 | inactive: 0%
60 | CC1CCN(C(=O)Oc2c(Cl)cc(Cl)c3cccnc23)CC1 | inactive: -0.8%
61 | CC(C)=N/N=C(\N)N[N+](=O)[O-] | inactive: -0.2%
62 | CC(C)c1nc(Nc2ccccc2)n(P(=O)(N(C)C)N(C)C)n1 | inactive: 0.8%
63 | CN(C)C(=O)OCCc1n(C)cc[n+]1C | inactive: 0.1%
64 | O=P1(N(CCCl)CCCl)OCCCS1 (stereo not given) | inactive: 0.1%
65 | O=C(Nc1cc([As](=O)(O)O)ccc1O)c1ccccc1 | inactive: 6.1%
66 | O=[N+]([O-])c1ncn(CCn2ncnc2[N+](=O)[O-])n1 | inactive: -0.2%
67 | CC(C)(C)C(=O)NC(Sc1ccncn1)C(Cl)(Cl)Cl (stereo not given) | inactive: 0.2%
68 | O=C(O)CNc1ccc([As](=O)(O)O)cc1 | inactive: -5%
69 | O=[N+]([O-])c1cccc(NC2=NCC(CBr)S2)c1 (stereo not given) | inactive: -5.7%
70 | COC(=O)C1(C)COP(=O)(Nc2ccccc2)OC1 (stereo not given) | inactive: 0%
